The exact form of at least one protein or probe is not confirmed. Where cells or extracts were used, other partners may take part. Tags and fusion partners may be left off the protein sequences shown.
Target: T1, RepTZAD (Rep 1-244 fusion) (UniProt Q89268)
T1 sequence (looked up): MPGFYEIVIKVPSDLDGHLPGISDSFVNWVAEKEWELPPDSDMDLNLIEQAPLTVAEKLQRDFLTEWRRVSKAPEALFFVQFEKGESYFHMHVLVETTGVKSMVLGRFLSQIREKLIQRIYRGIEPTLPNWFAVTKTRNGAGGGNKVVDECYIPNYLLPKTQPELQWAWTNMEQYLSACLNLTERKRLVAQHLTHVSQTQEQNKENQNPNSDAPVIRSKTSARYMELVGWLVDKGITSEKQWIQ
Test: one hybrid
Details: positive control in yeast; protein in cells

“AGCTTCAGTGAGCGAGCGAGCGCGCAGGTTCGAAGTGAGCGAGCGAGCGCGCAGGTGAGCGAGCGAGCGCGCAGC (double strand) [three tandem RRS upstream of LacZ (YM.RRS3.LacZ)]”: binds.
